The record followed here is patent publication EP1352977A2, “Novel Desulfitobacterium strain for the degradation of chloroalkenes” (UNIVERSITEIT GENT, priority 2002, dated 2003).

This series relates to Desulfitobacterium strain DCA1. Kind of series: Substrate range determination: growth on and dechlorination product from chlorinated substrates. It counts as cell-based, Desulfitobacterium dichloroeliminans strain DCA1. The conditions noted are these: for Product: substrate concentration 400 µM.

Molecules are shown by their SMILES.

As to `CC(Cl)C(C)Cl` [L-2,3-DCB, L-2,3-dichlorobutane], the Product entry is “Z-but-2-ene”.

In the case of `C[C@H](Cl)[C@@H](C)Cl` [meso-2,3-DCB, meso-2,3-dichlorobutane], the “dechlorination product” value is recorded as “trans-2-butene” and the Product result is reported as “E-but-2-ene”.
